Data on one variant can be found in publication PMC12474298.

To fix the notation:
B1: unnamed (parent)
chain 1: not shown
chain 2: ETKKRRRILE

This assay covers variants of B1. In words: FP assay. As to conditions: with partner chain of the complex shown; parent: 609 nM.
Regarding chain 2 R5A, the Kd amounted to 8.76 µM.
